Results of unrelated studies side by side (data: NIAID ChemDB).

All rows: whole-cell or culture tests; agent: Cryptococcus neoformans; endpoint: MIC

Two numbers with a dash give a range or band. Conditions beyond the fields shown may differ between rows. Blank or dashed fields: not listed here.

| smiles | strain or isolate | result |
|---|---|---|
| Fc1ccc(OCCC(Cn2ccnc2)c2ccc(Cl)cc2Cl)cc1 | - | <1 µg/mL |
| CO[C@@H]1[C@H]2OC(C)(C)O[C@H]2O[C@@H]1C1=NOC(CBr)C1 | - | 25 µg/mL |
| Clc1ccc2nnc3c4ccccc4[nH]c3c2c1 | - | 6.2 µM |
| O=C1C[C@@H](c2cccc(O)c2)Cc2cc(O)cc(O)c21 | Clinical isolate H99 | >540 µg/mL |
| CO[C@@H]1[C@H]2OC(C)(C)O[C@H]2O[C@@H]1C1=NOC(Cc2ccc(O)cc2)C1 | - | 12.5 µg/mL |
| CC(C)c1c(C(c2ccccc2)n2ccnc2)cnn1-c1ccccc1 | - | 66 µM |
| CCC(C)n1ncn(-c2ccc(N3CCN(c4ccc(OC[C@H]5CO[C@](Cn6cncn6)(c6ccc(Cl)cc6Cl)O5)cc4)CC3)cc2)c1=O | ATCC 90113 | 2 µg/mL |
| CN[C@@H]1[C@H](O[C@@H]2OC[C@@H](O)[C@H](O)[C@H]2O)[C@@H](O)[C@H](O[C@H]2c3c(c(O)c(C(=O)N[C@H](C)C(=O)O)c(C)c3[N+](=O)[O-])-c3c(cc4c(c3O)C(=O)c3cc(OC)cc(O)c3C4=O)[C@@H]2O)O[C@@H]1C | IAM 4514 | >100 µg/mL |
| CC1(C)O[C@H]2[C@@H](O1)[C@@H](C1=NOC(Cc3ccc(O)cc3)C1)O[C@@H]1OC(C)(C)O[C@@H]12 | - | 25 µg/mL |
| Clc1ccc(C(CCCOc2ccc(Br)cc2)Cn2ccnc2)c(Cl)c1 | - | 10 µg/mL |
| C[C@H]([C@](O)(Cn1cncn1)c1ccc(F)cc1F)S(C)(=O)=O | R715 (AZOLE-R) | 9 µM |
| COc1ccc(OCCC(Cn2ccnc2)c2ccc(Cl)cc2Cl)cc1 | - | <1 µg/mL |
| CSc1nc2ccccc2c(=O)n1/N=C1\C(=O)N(CN(C)C)c2ccc(Cl)cc21 | - | 4.88 µg/mL |
| C[C@H]1[C@H](O)[C@@H](C)/C=C/C=C/C=C/C=C/C=C/C=C/C=C/[C@H](O[C@@H]2O[C@H](C)[C@@H](O)[C@H](N)[C@@H]2O)C[C@@H]2O[C@](O)(C[C@@H](O)C[C@@H](O)CC[C@H](O)[C@@H](O)C[C@@H](O)CC(=O)O[C@H]1C)C[C@H](O)[C@H]2C(=O)O | ATCC 90113 | 2.5 µg/mL |
| C=CC1=CC[C@H]2[C@@H](C[C@H]3OC(=O)[C@@]4(C)[C@@H](O)CC[C@@]2(C)[C@@]34O)[C@H]1C | - | 0.25 µg/mL |
| O=C1C(O)C2(c3ccccc3)SCCCN12 | AH27/A | 53.19 µM |
| O=[N+]([O-])c1ccc2[nH]c3c4ccccc4nnc3c2c1 | - | 1.6 µM |
| CSc1nc2ccccc2c(=O)n1/N=C1\C(=O)N(CN2CCCCC2)c2ccccc21 | - | 39.06 µg/mL |
| CC(C)C(=O)CCC[C@H]1CO[C@@](Cn2ccnc2)(c2ccc(F)cc2F)C1 | B42419 | 1.56 µg/mL |
| COc1ccc(CC2CC([C@H]3O[C@@H]4OC(C)(C)O[C@@H]4[C@H]3OC)=NO2)cc1 | - | 25 µg/mL |
| C=C1/C=C(\C)[C@H](CC)OC(=O)[C@H](C)C(=O)C(O)(CO)C/C(C)=C/[C@@H](C)C1 | MY2026 | >200 µg/mL |
| O=C1C(O)C(c2ccccc2)N1c1ccccc1 | AH27/A | 52.29 µM |
| CN[C@@H]1[C@H](O[C@@H]2OC[C@@H](O)[C@H](O)[C@H]2O)[C@@H](O)[C@H](O[C@H]2c3c(N)c(C)c(C(=O)N[C@H](C)C(=O)O)c(O)c3-c3c(cc4c(c3O)C(=O)c3cc(OC)cc(O)c3C4=O)[C@@H]2O)O[C@@H]1C | IAM 4514 | >100 µg/mL |
| CCCCC/C=C\C/C=C/CC/C=C/[C@H]1C[C@H]([C@](O)(CC(=O)O[C@@H](C(=O)O)[C@H](CC(=O)O)C(=O)O)C(=O)O)C(=O)O1 | - | 55 µM |
| CC1(C)O[C@H]2[C@@H](O1)[C@@H](C1=NOC(CO)C1)O[C@@H]1OC(C)(C)O[C@@H]12 | - | 12.5 µg/mL |
| c1ccc(C(Cn2ccnc2)NCc2cccc3ccccc23)cc1 | - | >50 µg/mL |
| CC(C)C(=O)CCC[C@@H]1CO[C@@](Cn2cncn2)(c2ccc(F)cc2F)C1 | A.34144 | 6.25 µg/mL |
| CSc1nc2ccccc2c(=O)n1/N=C1\C(=O)N(CN(C)C)c2ccccc21 | - | 19.53 µg/mL |
| CC1(C)O[C@H]2O[C@H](C3=NOC(CO)C3)[C@H](OCc3ccccc3)[C@H]2O1 | - | 25 µg/mL |
| CO[C@H]1[C@@H](OC(=O)OCc2ccccc2)[C@H](O)[C@H](OCC23C4C=C(C(C)C)C2(C(=O)O)C(C=O)(C4)[C@@H]2CC[C@@H](C)[C@H]23)O[C@@H]1C | 2867 | >62 µg/mL |
| CC(C)C(=N)CCC=C1CO[C@@](Cn2ccnc2)(c2ccc(F)cc2F)C1 | A.34144 | 50 µg/mL |
| Clc1ccc(C(Cn2ccnc2)NCc2ccc(-c3ccccc3)cc2)c(Cl)c1 | - | 3 µg/mL |
| Cc1ccc2nnc3c4ccccc4[nH]c3c2c1 | - | >200 µM |
| CC(C)C(=N)CCC[C@H]1CO[C@@](Cn2cccc2)(c2ccc(F)cc2F)C1 | B42419 | 25 µg/mL |
| CO[C@@H]1[C@H]2OC(C)(C)O[C@H]2O[C@@H]1C1=NOC(C)C1C(=O)O | - | 12.5 µg/mL |
| CCC(C)n1ncn(-c2ccc(N3CCN(c4ccc(OC[C@H]5CO[C@](Cn6cncn6)(c6ccc(Cl)cc6Cl)O5)cc4)CC3)cc2)c1=O | A28201 | ≤0.007 µg/mL |
| COc1cc(O)c2c(c1)C(=O)c1c(cc3c(c1O)-c1c(cc(C)c(C(=O)N[C@H](C)C(=O)O)c1O)[C@H](O[C@@H]1O[C@H](C)[C@H](O)[C@H](O[C@@H]4OC[C@@H](O)[C@H](O)[C@H]4O)[C@H]1O)[C@H]3O)C2=O | 5 isolates | 0.63–1.25 µg/mL |
| CC[C@@H]([C@H](C)O)n1ncn(-c2ccc(N3CCN(c4ccc(OC[C@@H]5CO[C@@](Cn6cncn6)(c6ccc(F)cc6F)C5)cc4)CC3)cc2)c1=O | Isolate 486 | 0.25 µg/mL |
| COc1ccc(OCCCC(Cn2ccnc2)c2ccc(Cl)cc2Cl)cc1 | - | <1 µg/mL |
| CC(C)c1c(C(c2ccccc2)n2cncn2)cnn1-c1ccccc1 | - | >200 µM |
| COCCOCCOCCOCCOCCOCCNC(=O)[C@H]1[C@@H]2C[C@@H](O[C@@H]3O[C@H](C)[C@@H](O)[C@H](N)[C@@H]3O)/C=C/C=C/C=C/C=C/C=C/C=C/C=C/[C@H](C)[C@@H](O)[C@H](C)[C@H](C)OC(=O)C[C@H](O)C[C@H](O)[C@@H](O)CC[C@H](O)C[C@H](O)C[C@](O)(C[C@@H]1O)O2 | 3 strains | 3.2 µg/mL |
| COc1cc([C@@H]2CC(=O)c3c(O)cc(O)cc3C2)ccc1F | Clinical isolate H99 | 608 µg/mL |
| CC(=O)C1CC([C@H]2O[C@@H]3OC(C)(C)O[C@@H]3[C@H]2OCc2ccccc2)=NO1 | - | 12.5 µg/mL |
| Clc1ccc(OCC(Cn2ccnc2)c2ccc(Cl)cc2Cl)cc1 | - | <1 µg/mL |
| Clc1ccc(C(Cn2ccnc2)NC/C=C/c2ccccc2)cc1 | - | >50 µg/mL |
| COc1cc2c(c(O)c1C)C(=O)c1cc3c(c(O)c1C2=O)-c1c(cc(C)c(C(=O)NC(C)C(=O)O)c1OC)[C@H](OC1OC(C)C(N(C)C)C(OC2OCC(O)C(O)C2O)C1O)[C@H]3O | IAM 4514 | >100 µg/mL |
| CCCCC/C=C/C=C/C(O)C/C=C/C=C/C(=O)OC1C(O)C(c2c(O)cc(O)cc2CO)OC(CO)C1OC1OC(C(O)COC(=O)/C=C/C=C\CCC(O)CC)C(O)C1O | CR-1 | >100 µg/mL |
| COc1cc2c(c(O)c1C[N+](C)(C)C)C(=O)c1cc3c(c(O)c1C2=O)-c1c(O)c(C(=O)N[C@H](C)C(=O)O)c(C)c(N)c1[C@H](O[C@@H]1O[C@H](C)[C@H](N(C)C)[C@H](O[C@@H]2OC[C@@H](O)[C@H](O)[C@H]2O)[C@H]1O)[C@H]3O | IAM 4514 | >100 µg/mL |
| COC(=O)c1ccc(N2C(=O)C(OC(C)=O)C2c2ccc(F)cc2)cc1 | AH27/A | 35.01 µM |
| CCCCCOc1ccc(-c2cc(-c3ccc(C(=O)N[C@H]4C[C@@H](O)[C@@H](O)NC(=O)[C@@H]5[C@@H](O)[C@@H](C)CN5C(=O)[C@H]([C@H](O)CC(N)=O)NC(=O)[C@H]([C@H](O)[C@@H](O)c5ccc(O)c(OS(=O)(=O)O)c5)NC(=O)[C@@H]5C[C@@H](O)CN5C(=O)[C@H]([C@@H](C)O)NC4=O)cc3)no2)cc1 | TIMM0354 | >64 µg/mL |
| CC[C@@H]1OC(=O)[C@H](C)C(=O)C(O)(CO)C/C(Cl)=C/[C@@H](C)Cc2cccc1c2 | ATCC90112 | >64 µg/mL |
| O=C1C[C@@H](c2ccc(Cl)cc2)Cc2cc(O)cc(O)c21 | Clinical isolate H99 | 30 µg/mL |
| Cn1ncc(C(c2ccccc2)n2cncn2)c1-c1ccccc1 | - | >200 µM |
| CSc1nc2ccccc2c(=O)n1/N=C1\C(=O)N(CN2CCCCC2)c2ccc(Cl)cc21 | - | 9.76 µg/mL |
| Nc1ncc(/C=C/c2ccc([N+](=O)[O-])o2)nn1 | - | 5 µg/mL |
| COc1cc(O)c2c(c1)C(=O)c1c(cc3c(c1O)-c1c(cc(C)c(C(=O)N[C@H](CO)C(=O)O)c1O)[C@H](OC1OC(C)C(N)C(OC4OCC(O)C(O)C4O)C1O)[C@H]3O)C2=O | IAM 4514 | 0.8 µg/mL |
| CSc1nc2ccccc2c(=O)n1/N=C1\C(=O)N(CN(C)C)c2ccc(Br)cc21 | - | 19.53 µg/mL |
| CCCc1c(C(c2ccccc2)n2cncn2)cnn1-c1ccccc1 | - | >200 µM |
| N[C@H]1CCC[C@H]1C(=O)O | IAM 4514 | >20 µg/mL |
| COC(=O)c1ccc(N2C(=O)C(OC(C)=O)C2c2ccc(OC)cc2)cc1 | AH27/A | 33.87 µM |
| CC(C)C(=O)CCC[C@@H]1CO[C@@](Cn2ccnc2)(c2ccc(F)cc2F)C1 | IFM.40092 | <0.1 µg/mL |
| CC(=O)O[C@@H]1C(=O)N(c2ccc(C(=O)O)cc2)[C@H]1c1ccccc1 | AH27/A | 154 µM |
| Clc1ccc(C(Cn2ccnc2)NCc2cccc3ccccc23)cc1 | - | >50 µg/mL |
| CSc1nc2ccccc2c(=O)n1/N=C1\C(=O)Nc2ccccc21 | - | 19.53 µg/mL |

Repeating the first 6 entries:

| smiles | strain or isolate | result |
|---|---|---|
| Fc1ccc(OCCC(Cn2ccnc2)c2ccc(Cl)cc2Cl)cc1 | - | <1 µg/mL |
| CO[C@@H]1[C@H]2OC(C)(C)O[C@H]2O[C@@H]1C1=NOC(CBr)C1 | - | 25 µg/mL |
| Clc1ccc2nnc3c4ccccc4[nH]c3c2c1 | - | 6.2 µM |
| O=C1C[C@@H](c2cccc(O)c2)Cc2cc(O)cc(O)c21 | Clinical isolate H99 | >540 µg/mL |
| CO[C@@H]1[C@H]2OC(C)(C)O[C@H]2O[C@@H]1C1=NOC(Cc2ccc(O)cc2)C1 | - | 12.5 µg/mL |
| CC(C)c1c(C(c2ccccc2)n2ccnc2)cnn1-c1ccccc1 | - | 66 µM |